A mixed list of measured activities; the numbers were collected in NIAID ChemDB.

All rows: target-level tests

ICn: concentration for n% inhibition.

O=C(O)C(Br)P(=O)(O)O ; species: Herpes simplex virus 2 ; target: DNA polymerase ; measure: IC50 ; value: 5.4 µM
COc1ccc(CC2CCc3nc(N)nc(N)c3C2)cc1 ; species: Cryptosporidium parvum ; target: Dihydrofolate reductase ; measure: IC50 ; value: 0.36 µM
Nc1ccc(S(=O)(=O)Nc2cc(C(F)(F)F)cc(C(F)(F)F)c2)cc1 ; species: Pneumocystis carinii ; target: DHPS ; measure: IC50 ; value: 0.8 µM
O=C(Nc1nnc(NCCNc2ccccc2)s1)c1ccc2c(c1)C(=O)OC2=O ; species: Human cytomegalovirus ; target: Polymerase ; measure: IC50 ; value: <25 µM
CCCCC(N)B(O)O ; species: Cryptosporidium parvum ; target: Aminopeptidase ; measure: inhibition ; dose: 0.001 µM ; value: 96%
O=C(O)C(Cl)(Cl)P(=O)(O)O ; species: Herpes simplex virus 1 ; target: DNA polymerase ; measure: inhibition ; dose: 100 µM ; value: 0%
C=Cc1cn([C@H]2C[C@H](O)[C@@H](CO)O2)c(=O)[nH]c1=O ; species: Varicella zoster virus ; target: Thymidine kinase ; measure: Ki ; value: 0.41 µM
COCON1C(=O)/C(=C/c2ccc(OC)cc2)N(Cc2ccc(OC)cc2)[C@@H](CC(C)C)C1=O ; species: Influenza A virus ; target: Transcriptase ; measure: IC50 ; value: >200 µM
CC(C)C(=O)N(Cc1ccc(C(F)(F)F)cc1)c1cc(-c2ccccc2)sc1C(=O)O ; species: Hepatitis C virus ; target: NS3 ATPase ; measure: IC50 ; value: 5–20 µM
O=C(Nc1ccsc1-c1nc(C(=O)O)c(O)c(=O)[nH]1)OCCc1c[nH]c2ccccc12 ; species: Hepatitis C virus ; target: HCV polymerase ; measure: IC50 ; value: <25 µM
O=C(/C=C/c1ccccc1)Nc1nnc(NCCSc2ccccc2)s1 ; species: Human cytomegalovirus ; target: Polymerase ; measure: IC50 ; value: <25 µM
COCON1C(=O)[C@H]([C@H](OS(C)(=O)=O)c2ccc(OC)cc2)N(Cc2ccc(OC)cc2)[C@@H](CC(C)C)C1=O ; species: Influenza A virus ; target: Transcriptase ; measure: IC50 ; value: >200 µM
O=c1[nH]c(=O)n([C@@H]2O[C@H](CO)[C@@H](O)[C@@H]2O)cc1/C=C/Br ; species: Varicella zoster virus ; target: Thymidine kinase ; measure: Ki ; value: 0.25 µM
O=C(/C=C/c1ccccc1)Nc1nnc(NC2CC2)s1 ; species: Human cytomegalovirus ; target: Polymerase ; measure: IC50 ; value: >25 µM
Nc1nc(N)c2c(n1)CCC(c1ccccc1)C2 ; species: Cryptosporidium parvum ; target: Dihydrofolate reductase ; measure: IC50 ; value: >10 µM
O=C(O)c1sc(-c2ccccc2)cc1NCc1ccc(Cl)cc1Cl ; species: Hepatitis C virus ; target: NS3 ATPase ; measure: IC50 ; value: <5 µM
Nc1nc(N)c2c(n1)CCC(Cc1cccc(C(F)(F)F)c1)C2 ; species: Cryptosporidium parvum ; target: Dihydrofolate reductase ; measure: IC50 ; value: 5.75 µM
COc1ccc(NS(=O)(=O)c2ccc(N)cc2)nn1 ; species: Pneumocystis carinii ; target: DHPS ; measure: IC50 ; value: 0.017 µM
CC(C)CC1=N/C(=C\c2ccc(F)cc2)C(=O)NC1=O ; species: Influenza A virus ; target: Transcriptase ; measure: IC50 ; value: 365 µM
COc1ccc(OC)c(NCc2ccc3nc(N)nc(N)c3c2Cl)c1 ; species: Cryptosporidium parvum ; target: Dihydrofolate reductase ; measure: IC50 ; value: 0.29 µM
O=C(Nc1nnc(NCCSc2ccccc2)s1)c1ccc2c(c1)C(=O)OC2=O ; species: Human cytomegalovirus ; target: Polymerase ; measure: IC50 ; value: <25 µM
CC#Cc1cn([C@@H]2O[C@H](CO)[C@@H](O)[C@@H]2O)c(=O)[nH]c1=O ; species: Varicella zoster virus ; target: Thymidine kinase ; measure: Ki ; value: 5.19 µM
Cc1cc(SC2=C(O)C[C@@](CCc3ccc(O)cc3)(C(C)C)OC2=O)c(C(C)(C)C)cc1CO ; target: Cytochrome P450 3A4 ; measure: inhibition ; dose: 1 µM ; value: 9%
COC(=O)c1nc(-c2sccc2NC(=O)C(N)c2ccccc2)[nH]c(=O)c1O ; species: Hepatitis C virus ; target: HCV polymerase ; measure: IC50 ; value: <50 µM
COc1cc(CN(C)c2ccc3nc(N)nc(N)c3c2Cl)cc(OC)c1OC ; species: Cryptosporidium parvum ; target: Dihydrofolate reductase ; measure: IC50 ; value: 0.81 µM
CC(C)c1cc(C(C)C)c(C(=O)Nc2nnc(NCC3CCCCC3)s2)c(C(C)C)c1 ; species: Human cytomegalovirus ; target: Polymerase ; measure: IC50 ; value: >25 µM
O=C/C=C/c1ccccc1 ; species: Saccharomyces cerevisiae ; target: Chitin synthase 1 ; measure: Ki ; value: 530 µM
O=C(/C=C/c1ccccc1Cl)Nc1nnc(NCc2cccc3ccccc23)s1 ; species: Human cytomegalovirus ; target: Polymerase ; measure: IC50 ; value: >25 µM
COc1cc(C)nc(NC(=S)NC(=O)c2ccc(-c3ccc([N+](=O)[O-])cc3)o2)n1 ; species: Influenza A virus ; strain or isolate: H1N1 ; target: Neuraminidase ; measure: IC50 ; value: 2.3 µM
CCCCCCCCCCCNc1nnc(NC(=O)c2ccc(C#N)cc2)s1 ; species: Human cytomegalovirus ; target: Polymerase ; measure: IC50 ; value: <25 µM
CC(C)CC(N)B(O)O ; species: Cryptosporidium parvum ; target: Aminopeptidase ; measure: inhibition ; dose: 0.001 µM ; value: 78%
O=P(O)(O)C(F)(Br)P(=O)(O)O ; species: Herpes simplex virus 2 ; target: DNA polymerase ; measure: IC50 ; value: >100 µM
Cc1cc(C)cc(SCc2ccc(-c3nc(C(=O)O)c(O)c(=O)[nH]3)cc2)c1 ; species: Hepatitis C virus ; target: HCV polymerase ; measure: IC50 ; value: <100 µM
CCOc1cc(C)nc(NC(=S)NC(=O)c2ccc(-c3ccccc3Cl)o2)n1 ; species: Influenza A virus ; strain or isolate: H1N1 ; target: Neuraminidase ; measure: IC50 ; value: 11 µM
O=S(=O)(F)Cc1ccccc1 ; species: Cryptosporidium parvum ; target: Aminopeptidase ; measure: IC50 ; value: >1000 µM
COCON1C(=O)/C(=C/c2ccccc2)N(Cc2ccc(OC)cc2)[C@@H](CC(C)C)C1=O ; species: Influenza A virus ; target: Transcriptase ; measure: IC50 ; value: >200 µM
Nc1ccc(S(=O)(=O)Nc2ccc(Cl)nn2)cc1 ; species: Pneumocystis carinii ; target: DHPS ; measure: inhibition ; dose: 0.05 µM ; value: 29.5%
O=C(Nc1cscc1-c1nc(C(=O)O)c(O)c(=O)[nH]1)NS(=O)(=O)c1ccc2ccccc2c1 ; species: Hepatitis C virus ; target: HCV polymerase ; measure: IC50 ; value: <25 µM
NC(N)=NS(=O)(=O)c1ccc(N)cc1 ; species: Pneumocystis carinii ; target: DHPS ; measure: IC50 ; value: 3.2 µM
CC(C)(C)NC(=O)NC(=S)NC(=O)COc1ccc(Cl)cc1Cl ; species: Influenza A virus ; strain or isolate: H1N1 ; target: Neuraminidase ; measure: IC50 ; value: 0.69 µM
O=C(Nc1nnc(NCCSc2ccccc2)s1)c1ccc(F)cc1F ; species: Human cytomegalovirus ; target: Polymerase ; measure: IC50 ; value: >25 µM
CC(C)N(C(=O)c1ccc(Cl)cc1Cl)c1cc(-c2cccc(C(F)(F)F)c2)sc1C(=O)O ; species: Hepatitis C virus ; target: NS3 ATPase ; measure: IC50 ; value: <5 µM
O=C(O)C(F)P(=O)(O)O ; species: Herpes simplex virus 1 ; target: DNA polymerase ; measure: inhibition ; dose: 100 µM ; value: 100%
CC(C)C(=O)N1C[C@H](CN2CCC(c3ccccc3)CC2)[C@@H](c2ccccc2)C1 ; mutations: CCR5-E283A ; target: CCR5 ; method: radiometric ; measure: IC50 ; value: >10 µM
Nc1ccc(S(=O)(=O)Nc2nccs2)cc1 ; species: Pneumocystis carinii ; target: DHPS ; measure: IC50 ; value: <0.05 µM
C#Cc1cn([C@H]2C[C@H](O)[C@@H](CO)O2)c(=O)[nH]c1=O ; species: Varicella zoster virus ; target: Thymidine kinase ; measure: Ki ; value: 1.56 µM
O=C(O)c1nc(-c2cccc(NS(=O)(=O)c3ccccc3)c2)[nH]c(=O)c1O ; species: Hepatitis C virus ; target: HCV polymerase ; measure: IC50 ; value: <100 µM
O=C(c1ccccc1Cl)N1C[C@H](CN2CCC(O)(CCCc3ccc(-c4nn[nH]n4)cc3)CC2)[C@@H](c2ccccc2)C1 ; mutations: CCR5-E283A ; target: CCR5 ; method: radiometric ; measure: fold resistance ; value: >909.1
Cc1ccccc1S(=O)(=O)Nc1cc(-c2ccc(F)c(F)c2)sc1C(=O)O ; species: Hepatitis C virus ; target: NS3 ATPase ; measure: IC50 ; value: <5 µM
Nc1ccc(S(=O)(=O)NC(=O)c2ccccc2)cc1 ; species: Pneumocystis carinii ; target: DHPS ; measure: IC50 ; value: 0.32 µM
CC(C)C(N)B(O)O ; species: Cryptosporidium parvum ; target: Aminopeptidase ; measure: inhibition ; dose: 0.001 µM ; value: 81%
O=C(O)C(Br)(Br)P(=O)(O)O ; species: Epstein-Barr virus ; target: DNA polymerase ; measure: IC50 ; value: >100 µM

3 of the rows above, restated:

{"structure": "O=C(Nc1nnc(NCCSc2ccccc2)s1)c1ccc2c(c1)C(=O)OC2=O", "species": "Human cytomegalovirus", "target": "Polymerase", "measure": "IC50", "value": "<25 µM"}
{"structure": "Nc1nc(N)c2c(n1)CCC(c1ccccc1)C2", "species": "Cryptosporidium parvum", "target": "Dihydrofolate reductase", "measure": "IC50", "value": ">10 µM"}
{"structure": "C#Cc1cn([C@H]2C[C@H](O)[C@@H](CO)O2)c(=O)[nH]c1=O", "species": "Varicella zoster virus", "target": "Thymidine kinase", "measure": "Ki", "value": "1.56 µM"}

a–b is a range or a potency band. Percent inhibition refers to the dose given; in toxicity tests it is the harm to the cells. Lines come from different laboratories, so protocols vary. Fold resistance: result on the changed form divided by that on wild type.